Measurements taken from patent US4120864A, “1,2,4-4H-triazole derivatives” (Rohm and Haas Company, priority 1972, dated 1978).

Test system: wheat leaf rust, Puccinia recondita
Assay: Systemic activity by root-uptake, wheat leaf rust
Assay type: in vivo

## CCCCn1cnnc1SC(O)C(Cl)(Cl)Cl (stereo not drawn)
2.5 ppm in soil
  % Systemic Wheat Leaf Rust Control: 98%
5 ppm in soil
  % Systemic Wheat Leaf Rust Control: 100%
10 ppm in soil
  % Systemic Wheat Leaf Rust Control: 100%

## 3-(4-methoxybenzylmercapto)-4-n-butyl-1,2,4-triazole admixed with 4-n-butyl-2-(4-methoxybenzyl)-1,2,4-triazoline-3-thione
2.5 ppm in soil
  % Systemic Wheat Leaf Rust Control: 64%
5 ppm in soil
  % Systemic Wheat Leaf Rust Control: 71%
10 ppm in soil
  % Systemic Wheat Leaf Rust Control: 72%
